Results of unrelated studies side by side (data: NIAID ChemDB).

Common to all: tests on isolated targets

Rows are shuffled and stem from different studies. ICn: concentration for n% inhibition. Two numbers with a dash give a range or band. Inhibition is in % at the dose shown (toxicity tests: loss of growth or viability).

{"smiles": "Cc1ccc(C(=O)N(C)c2cc(-c3ccc(C#N)cc3)sc2C(=O)O)cc1", "species": "Hepatitis C virus", "target": "NS3 ATPase", "read-out": "IC50", "value": "5–20 µM"}
{"smiles": "O=C(Nc1nn[nH]n1)c1cnn2c(C3CCCCC3)c(-c3ccc(OCc4ccccc4)cc3)cnc12", "species": "Hepatitis C virus", "target": "RNA-dependent RNA polymerase", "read-out": "IC50", "value": "<1 µM"}
{"smiles": "CC[C@@H](C=O)NC(=O)[C@@H]1C[C@@H](OCc2ccc3nc(C(F)(F)F)ccc3c2Cl)CN1C(=O)[C@@H](NC(=O)[C@@H](NC(=O)c1cnccn1)C(C)C)C(C)C", "species": "Hepatitis C virus", "target": "NS3 protease", "read-out": "Ki", "value": "1–100 µM"}
{"smiles": "COc1ccc(-c2ccc(Cl)cc2)c(-c2ccc3cc(-c4[nH]c5cc(C(=O)O)ccc5c4C4CCCCC4)ccc3n2)c1", "species": "Hepatitis C virus", "tested at": "33 µM", "target": "NS5B polymerase", "read-out": "inhibition", "value": "97.55%"}
{"smiles": "CC[C@@H](C=O)NC(=O)[C@@H]1C[C@@H](OC(=O)Nc2cc(Cl)nc(Cl)c2)CN1C(=O)[C@@H](NC(=O)[C@@H](NC(=O)c1cnccn1)C(C)C)C(C)C", "species": "Hepatitis C virus", "target": "NS3 protease", "read-out": "Ki", "value": "1–100 µM"}
{"smiles": "O=C(O)c1cc2nc(-c3ccc(Cl)cc3)cc(-c3ccc(Cl)cc3)n2n1", "species": "Hepatitis C virus", "target": "RNA-dependent RNA polymerase", "read-out": "IC50", "value": ">10 µM"}
{"smiles": "CC[C@@H](C=O)NC(=O)[C@@H]1C[C@@H](OCc2ccccc2)CN1C(=O)[C@@H](NC(=O)c1cc2ccccc2[nH]1)C(C)C", "species": "Hepatitis C virus", "target": "NS3 protease", "read-out": "Ki", "value": "1–100 µM"}
{"smiles": "CNC(=O)c1c(-c2ccc(F)cc2)oc2cc(N(C)S(C)(=O)=O)c(OCc3ccc4c(c3)C(=O)OC(C)(C)O4)cc12", "species": "Hepatitis C virus", "target": "Nonstructural protein 5B", "read-out": "IC50", "value": "≤0.5 µM"}
{"smiles": "O=C(N[C@@H](Cc1cc2ccccc2[nH]1)C(=O)O)c1cc2nc(-c3ccoc3)c(C3CCCCC3)c(=O)n2[nH]1", "species": "Hepatitis C virus", "target": "RNA-dependent RNA polymerase", "read-out": "IC50", "value": "<1 µM"}
{"smiles": "COc1nc(NCCc2c[nH]c3ccccc23)nc(Nc2ccc3[nH]ncc3c2)n1", "species": "Hepatitis B virus", "target": "DNA polymerase", "read-out": "IC50", "value": ">1 µg/mL"}
{"smiles": "O=C(O)c1sc(-c2ccccc2)cc1NS(=O)(=O)c1ccccc1Cl", "species": "Hepatitis C virus", "target": "NS3 ATPase", "read-out": "IC50", "value": "5–20 µM"}
{"smiles": "O=C(O)c1ccc2c(c1)nc(-c1ccc3nc(-c4cccc(Br)c4)ccc3c1)n2C1CCCCC1", "species": "Hepatitis C virus", "tested at": "100 µM", "target": "NS5B polymerase", "read-out": "inhibition", "value": "101%"}
{"smiles": "CC[C@@H](C=O)NC(=O)[C@@H]1C[C@@H](OCc2ccccc2)CN1C(=O)[C@@H](NC(=O)[C@@H](NC(=O)N1CCOCC1)C(C)C)C(C)C", "species": "Hepatitis C virus", "target": "NS3 protease", "read-out": "Ki", "value": "1–100 µM"}
{"smiles": "COc1nc(Nc2ccc3cn[nH]c3c2)nc(N2CCC(O)CC2)n1", "species": "Hepatitis C virus", "tested at": "10 µg/mL", "target": "Nonstructural protein 5B", "read-out": "inhibition", "value": "57%"}
{"smiles": "CC[C@H](NC(=O)[C@H](CC(C)C)NC(=O)[C@@H](NC(=O)[C@@H](NC(=O)c1cnccn1)C(C)C)C(C)C)C(=O)C(=O)N[C@H](CC)c1ccccc1", "species": "Hepatitis C virus", "target": "NS3 protease", "read-out": "Ki", "value": "1–100 µM"}
{"smiles": "CNC(=O)c1c(-c2ccc(F)cc2)oc2cc(N(CC(C)=O)S(C)(=O)=O)c(OC(C)C)cc12", "species": "Hepatitis C virus", "target": "Nonstructural protein 5B", "read-out": "IC50", "value": "≤0.5 µM"}
{"smiles": "CCc1ccc(-c2ccc(OC)cc2-c2ccc3cc(-c4nc5cc(C(=O)O)ccc5n4C4CCCCC4)ccc3n2)cc1", "species": "Hepatitis C virus", "tested at": "100 µM", "target": "NS5B polymerase", "read-out": "inhibition", "value": "101%"}
{"smiles": "CCOC(=O)C1=CN(N2CCN(c3nc(Nc4ccc5[nH]ncc5c4)nc(OC)n3)CC2)C(SC)N=C1", "species": "Hepatitis B virus", "tested at": "0.01 µg/mL", "target": "DNA polymerase", "read-out": "inhibition", "value": "0%"}
{"smiles": "CC(C)N(C(=O)C1C2CC3CC(C2)CC1C3)c1cc(-c2ccccc2)sc1C(=O)O", "species": "Hepatitis C virus", "target": "NS3 ATPase", "read-out": "IC50", "value": ">20 µM"}
{"smiles": "O=C(O)c1ccc2c(c1)nc(-c1ccc3nc(-c4c(O)ccc5ccccc45)ccc3c1)n2C1CCCCC1", "species": "Hepatitis C virus", "tested at": "100 µM", "target": "NS5B polymerase", "read-out": "inhibition", "value": "102%"}
{"smiles": "O=C(O)c1cnn2c(C3CCCCC3)c(-c3ccc(OCc4ccccc4)c(F)c3)cnc12", "species": "Hepatitis C virus", "target": "RNA-dependent RNA polymerase", "read-out": "IC50", "value": "<1 µM"}
{"smiles": "O=C(O)c1sc(-c2ccccc2)cc1N(Cc1ccccc1Cl)C(=O)C1CC1", "species": "Hepatitis C virus", "target": "NS3 ATPase", "read-out": "IC50", "value": ">20 µM"}
{"smiles": "O=C(O)c1cc2nc(-c3ccc(Oc4ccccc4)cc3)cc(-c3ccc(-c4ccccc4)cc3)n2n1", "species": "Hepatitis C virus", "target": "RNA-dependent RNA polymerase", "read-out": "IC50", "value": "1–10 µM"}
{"smiles": "Nc1cc(-c2ccccc2)sc1-c1ccc2cc(-c3nc4cc(C(=O)O)ccc4n3C3CCCCC3)ccc2n1", "species": "Hepatitis C virus", "tested at": "100 µM", "target": "NS5B polymerase", "read-out": "inhibition", "value": "104%"}
{"smiles": "CNC(=O)c1c(-c2ccc(F)cc2)oc2cc(N(C)S(C)(=O)=O)c(C3CC3)cc12", "species": "Hepatitis C virus", "target": "Nonstructural protein 5B", "read-out": "IC50", "value": "≤0.5 µM"}
{"smiles": "COc1ccc(-c2ccc(O)cc2)c(-c2ccc3cc(-c4nc5cc(C(=O)O)ccc5n4C4CCCCC4)ccc3n2)c1", "species": "Hepatitis C virus", "tested at": "100 µM", "target": "NS5B polymerase", "read-out": "inhibition", "value": "98.24%"}
{"smiles": "CC(C)NC1=NC(NC(C)C)N(CN)C(Nc2ccc3cn[nH]c3c2)=N1", "species": "Hepatitis B virus", "tested at": "0.01 µg/mL", "target": "DNA polymerase", "read-out": "inhibition", "value": "36%"}
{"smiles": "CC(C)N(C(=O)c1ccc(Cl)cc1O)c1cc(-c2ccccc2)sc1C(=O)O", "species": "Hepatitis C virus", "target": "NS3 ATPase", "read-out": "IC50", "value": "<5 µM"}
{"smiles": "COCCOc1ccc(-c2ccc(Cl)cc2)c(-c2ccc3cc(-c4nc5cc(C(=O)O)ccc5n4C4CCCCC4)ccc3n2)c1", "species": "Hepatitis C virus", "tested at": "33 µM", "target": "NS5B polymerase", "read-out": "inhibition", "value": "97.5%"}
{"smiles": "CSCC[C@H](NC(=O)c1cnn2c(C3CCCCC3)c(-c3ccc(F)cc3)cnc12)C(=O)O", "species": "Hepatitis C virus", "target": "RNA-dependent RNA polymerase", "read-out": "IC50", "value": "<1 µM"}
{"smiles": "O=C(O)c1ccc2c(c1)nc(-c1ccc3nc(-c4ccccc4)c(-c4ccccc4)cc3c1)n2C1CCCCC1", "species": "Hepatitis C virus", "tested at": "33 µM", "target": "NS5B polymerase", "read-out": "inhibition", "value": "100%"}
{"smiles": "Cc1ccc(S(=O)(=O)Nc2cc(-c3ccccc3)sc2C(=O)NCC(=O)O)cc1", "species": "Hepatitis C virus", "target": "NS3 ATPase", "read-out": "IC50", "value": "5–20 µM"}
{"smiles": "O=C(N[C@@H](Cc1ccccc1)C(=O)O)c1cc2nc(-c3ccc(Cl)cc3)cc(-c3ccc(Oc4ccccc4)cc3)n2n1", "species": "Hepatitis C virus", "target": "RNA-dependent RNA polymerase", "read-out": "IC50", "value": ">10 µM"}
{"smiles": "COc1nc(NCCN2CCOCC2)nc(Nc2ccc3cn[nH]c3c2)n1", "species": "Hepatitis B virus", "tested at": "1 µg/mL", "target": "DNA polymerase", "read-out": "inhibition", "value": "79%"}
{"smiles": "CNC(=O)c1c(-c2ccc(F)cc2)oc2cc(N3CCOCC3)c(OCc3noc(C(C)(C)C)n3)cc12", "species": "Hepatitis C virus", "target": "Nonstructural protein 5B", "read-out": "IC50", "value": "≤0.5 µM"}
{"smiles": "O=C(Nc1cnn2c(C3CCCCC3)c(-c3ccc(OCc4ccccc4)cc3)cnc12)C1CC1", "species": "Hepatitis C virus", "target": "RNA-dependent RNA polymerase", "read-out": "IC50", "value": ">10 µM"}
{"smiles": "CN(C(=O)Cc1ccc(F)cc1)c1cc(-c2ccccc2)sc1C(=O)O", "species": "Hepatitis C virus", "target": "NS3 ATPase", "read-out": "IC50", "value": "<5 µM"}

Again, the opening 4 rows:

{"smiles": "Cc1ccc(C(=O)N(C)c2cc(-c3ccc(C#N)cc3)sc2C(=O)O)cc1", "species": "Hepatitis C virus", "target": "NS3 ATPase", "read-out": "IC50", "value": "5–20 µM"}
{"smiles": "O=C(Nc1nn[nH]n1)c1cnn2c(C3CCCCC3)c(-c3ccc(OCc4ccccc4)cc3)cnc12", "species": "Hepatitis C virus", "target": "RNA-dependent RNA polymerase", "read-out": "IC50", "value": "<1 µM"}
{"smiles": "CC[C@@H](C=O)NC(=O)[C@@H]1C[C@@H](OCc2ccc3nc(C(F)(F)F)ccc3c2Cl)CN1C(=O)[C@@H](NC(=O)[C@@H](NC(=O)c1cnccn1)C(C)C)C(C)C", "species": "Hepatitis C virus", "target": "NS3 protease", "read-out": "Ki", "value": "1–100 µM"}
{"smiles": "COc1ccc(-c2ccc(Cl)cc2)c(-c2ccc3cc(-c4[nH]c5cc(C(=O)O)ccc5c4C4CCCCC4)ccc3n2)c1", "species": "Hepatitis C virus", "tested at": "33 µM", "target": "NS5B polymerase", "read-out": "inhibition", "value": "97.55%"}